Results of unrelated studies side by side (data: NIAID ChemDB).

Common to all: growth or infection tests; organism: Cryptococcus neoformans; endpoint: MIC

An empty or dashed field is not shown. Neighbouring rows are from separate reports.

compound,method,strain or isolate,value
COc1ccc2c(c1)C(=O)/C(=C/c1ccc3c(c1)OCO3)CO2,,93/V,25 µg/mL
Oc1ccccc1N=Cc1cccc(O)c1O,broth dilution,GM,3.6 µg/mL
CC(=O)N1CCC(n2cc(-c3nc(-c4ccc(Cl)cc4)n[nH]3)nn2)CC1,agar,,>200 µg/mL
Oc1cccc(C=Nc2ccccc2O)c1,broth dilution,27JF,4 µg/mL
COc1ccc(-c2n[nH]c(-c3cn(C4CCN(C)CC4)nn3)n2)cc1,agar,,150 µg/mL
Oc1ccccc1C=Nc1ccccc1O,broth dilution,C-3-1,4 µg/mL
CCCCCCCC(=O)NC(CCCN)C(N)=O,broth dilution,ATCC 2344,>100 µg/mL
Oc1ccc(O)c(C=Nc2ccccc2O)c1,broth dilution,VM-MCMMPI,8 µg/mL
CC1C(=O)N(CCCCc2ccccc2)C(=O)C1C,broth dilution / turbidity,ATCC 32264,125 µg/mL
Oc1ccccc1N=Cc1ccc2c(c1)OCO2,broth dilution,C-3-1,4 µg/mL
O=C1/C(=C/c2ccc3c(c2)OCO3)COc2ccc(-c3ccccc3)cc21,,93/V,50 µg/mL
CC1CC(=O)N(CCc2ccccc2)C1=O,broth dilution / turbidity,ATCC 32264,125 µg/mL
O=C1/C(=C/c2ccccc2)CCc2ccccc21,,25,25 µg/mL
CCCCCCCCCCCCCCCCCC(=O)NC(CCCN)C(=O)NC(CCCN)C(N)=O,broth dilution,ATCC 2344,25 µg/mL
COc1ccc(/C=C2\CSc3ccc(Cl)cc3C2=O)cc1OC,,93/V,12.5 µg/mL
CCCCCCCCCCCCCCCC(=O)NC(CCCN)C(=O)NC(CCCN)C(=O)NC(CCCN)C(=O)NC(CCCN)C(=O)NC(CCCN)C(N)=O,broth dilution,ATCC 2344,6.25 µg/mL
C[C@@H]1[C@H](O)[C@@H](C)/C=C/C=C/C=C/C=C/C=C/C=C/C=C/[C@H](O[C@@H]2O[C@H](C)[C@@H](O)[C@H](N)[C@@H]2O)C[C@@H]2O[C@](O)(C[C@@H](O)C[C@@H](O)[C@H](O)CC[C@@H](O)C[C@@H](O)CC(=O)O[C@H]1C)C[C@H](O)[C@H]2C(=O)O,broth dilution,Clinical isolate (IM 972724),0.06 µg/mL
C[C@@H](c1ncncc1F)[C@](O)(Cn1cncn1)c1ccc(F)cc1F,broth dilution,B 36203,0.016 µg/mL
C[C@H]1[C@H](O)[C@@H](C)/C=C/C=C/C=C/C=C/C=C/C=C/C=C/[C@H](O[C@@H]2O[C@H](C)[C@@H](O)[C@H](N)[C@@H]2O)C[C@@H]2O[C@](O)(C[C@@H](O)C[C@@H](O)CC[C@H](O)[C@@H](O)C[C@@H](O)CC(=O)O[C@H]1C)C[C@H](O)[C@H]2C(=O)O,absorbance,,0.16 µg/mL
C[C@@H](c1ncncc1F)[C@](O)(Cn1cncn1)c1ccc(F)cc1F,broth dilution,Clinical isolate (IM 042074),<0.015 µg/mL
COc1ccc(N2C(=O)C[C@@H](C)C2=O)cc1,broth dilution / turbidity,ATCC 32264,62.5 µg/mL
CCCCCCCCCC(=O)NC(CCCN)C(=O)NC(CCCN)C(N)=O,broth dilution,ATCC 2344,>100 µg/mL
COc1ccc(/C=C2\COc3ccc(OC)cc3C2=O)cc1,,Farwania,6 µg/mL
CCN1CCC(n2cc(-c3nc(-c4ccc(OC)cc4)n[nH]3)nn2)CC1,agar,,>200 µg/mL
CC1CC(=O)N(c2ccc(F)cc2)C1=O,broth dilution / turbidity,ATCC 32264,62.5 µg/mL
O=C(c1ccccc1)N1CCC(n2cc(-c3nc(-c4ccccc4)n[nH]3)nn2)CC1,agar,,180 µg/mL
C[C@H]1C(=O)CCC2[C@]3(C)CC[C@@]4(C)C5CC(C)(C)CC[C@]5(C)CC[C@]4(C)C3CC[C@@]21C,absorbance,,>250 µg/mL
C[C@H]1[C@H](O)[C@@H](C)/C=C/C=C/C=C/C=C/C=C/C=C/C=C/[C@H](O[C@@H]2O[C@H](C)[C@@H](O)[C@H](N)[C@@H]2O)C[C@@H]2O[C@](O)(C[C@@H](O)C[C@@H](O)CC[C@H](O)[C@@H](O)C[C@@H](O)CC(=O)O[C@H]1C)C[C@H](O)[C@H]2C(=O)O,broth dilution / turbidity,ATCC 32264,0.24 µg/mL
COc1ccc(/C=C2\COc3ccccc3C2=O)cc1,,25,50 µg/mL
CC1CC(=O)N(c2ccc(Br)cc2)C1=O,broth dilution / turbidity,ATCC 32264,125 µg/mL
Oc1ccccc1N=Cc1ccc(F)cc1,broth dilution,ATCC 28957,4 µg/mL
COc1ccc(/C=C2\CSc3ccccc3C2=O)cc1OC,,25,50 µg/mL
COc1ccc(N2C(=O)CC(C)C2=O)cc1,broth dilution / turbidity,ATCC 32264,62.5 µg/mL
Oc1ccccc1N=Cc1ccccc1,broth dilution,96806,5.7 µg/mL
C[C@@H]1CC(=O)N(c2ccc(Cl)cc2)C1=O,broth dilution / turbidity,ATCC 32264,31.3 µg/mL
CN1CCC(n2cc(-c3nc(-c4ccccc4)n[nH]3)nn2)CC1,agar,,150 µg/mL

Again, the opening 5 rows:

compound,method,strain or isolate,value
COc1ccc2c(c1)C(=O)/C(=C/c1ccc3c(c1)OCO3)CO2,,93/V,25 µg/mL
Oc1ccccc1N=Cc1cccc(O)c1O,broth dilution,GM,3.6 µg/mL
CC(=O)N1CCC(n2cc(-c3nc(-c4ccc(Cl)cc4)n[nH]3)nn2)CC1,agar,,>200 µg/mL
Oc1cccc(C=Nc2ccccc2O)c1,broth dilution,27JF,4 µg/mL
COc1ccc(-c2n[nH]c(-c3cn(C4CCN(C)CC4)nn3)n2)cc1,agar,,150 µg/mL